A mixed list of measured activities; the numbers were collected in NIAID ChemDB.

All rows: whole-cell or culture tests

Blank or dashed fields: not listed here. Inhibition is in % at the dose shown (toxicity tests: loss of growth or viability). ECn: concentration that inhibits the pathogen or its effect by n%. Conditions beyond the fields shown may differ between rows. Fold resistance has wild type as its base. Two numbers with a dash give a range or band.

SMILES,species,method,strain or isolate,mutations,measure,tested at,cell line,value
COc1ccc(-n2c(C(=O)NCc3ccccc3)c3n(c2=O)CCN(C(=O)c2ccc(Cl)c(Cl)c2)C3)cc1Cl,Hepatitis B virus,PCR / entry,-,-,EC50,-,HepG2.117,>5 µM
COCCCOc1cc2c(cc1Cl)-c1c(cc(C(=O)O)c(=O)n1C1CCCC1)C(C)S2(=O)=O,Hepatitis B virus,antigen / visual reading / absorbance,-,-,EC50,-,Primary human hepatocytes,>0.5 µM
CC(C)C(=O)N1c2cccc(O)c2NC2=C(C(=O)CC(C)(C)C2)[C@@H]1c1ccc(OCc2ccccc2)cc1Cl,Hepatitis C virus,luciferase / reporter gene / replicon,1b,-,EC50,-,-,0.98 µM
COc1ccc(-n2c(C(=O)N[C@@H]3CCc4ccccc43)c3n(c2=O)CCN(C(=O)c2ccc(Br)c(Cl)c2)C3)cc1,Hepatitis B virus,PCR,-,-,EC50,-,HepG2.117,0.5–5 µM
CC(C)C(=O)N1c2cccc(O)c2NC2=C(C(=O)CC(C)(C)C2)C1c1ccc(OCc2ccccc2)c(F)c1,Hepatitis C virus,luciferase / reporter gene / replicon,1b,-,EC50,-,-,1.27 µM
O=C(c1ccc(Br)c(Cl)c1)N1CCn2c(c3n(c2=O)C[C@@H](CO)CN(Cc2ccccc2)C3=O)C1,Hepatitis B virus,PCR,-,-,EC50,-,HepG2.117,0.1–0.5 µM
CC1(C)CC(=O)C2=C(C1)Nc1c(O)cccc1N(C(=O)c1csc(Br)n1)C2c1ccc(OCc2ccccc2)cc1F,Hepatitis C virus,luciferase / reporter gene / replicon,1b,-,EC50,-,-,0.94 µM
CC(C)Cc1cnn2c3c(c(=O)n(-c4ccc(-c5nncn5C)cc4)c12)C[C@@H](C)N(C(=O)c1ccc(Cl)c(C(F)(F)F)c1)C3,Hepatitis B virus,luminescence,-,-,EC50,-,HepG2.117,≤0.05 µM
COC(=O)[C@H](CCSC)NC(=O)c1ccc(NC[C@@H]([NH3+])CS)cc1-c1ccccc1,Hepatitis D virus,-,-,-,EC50,-,Huh7,<0.5 µM
CC1CCC(C(=O)N(c2cc(C#CC(C)(C)C)sc2C(=O)O)C2CCC(O)CC2)CC1,Hepatitis C virus,luciferase,Con1 (gt 1b),M423V,fold resistance,-,Huh7,18
O=C(c1ccc(Br)c(Cl)c1)N1CCc2c(n3ncc(Cc4ccccc4)c3n(-c3ccc(-n4ccc(C(F)(F)F)n4)cc3)c2=O)C1,Hepatitis B virus,luminescence,-,-,EC50,-,HepG2.117,0.05–0.5 µM
COCCCOc1cc2c(cc1Cl)-c1c(cc(C(=O)O)c(=O)n1C1CC1)C(C)S2(=O)=O,Hepatitis B virus,antigen / visual reading / absorbance,-,-,EC50,-,Primary human hepatocytes,0.1–0.5 µM
C[C@H](Oc1ccc(CNC(=O)c2c3n(c(=O)n2-c2ccc(OCC(F)(F)F)cc2)CCN(C(=O)c2ccc(Br)c(Cl)c2)C3)c(F)c1)C(N)=O,Hepatitis B virus,PCR,-,-,EC50,-,HepG2.117,0.5–5 µM
O=C(O)c1cc2c(n(C3CC3)c1=O)-c1cc(Cl)c(OCC3CCO3)cc1S(=O)(=O)C2,Hepatitis A virus,antigen / visual reading / absorbance,-,-,EC50,-,Primary human hepatocytes,0.1–0.5 µM
CC1(C)CC(=O)C2=C(C1)Nc1c(O)cccc1NC2c1ccc(S(C)(=O)=O)cc1Cl,Hepatitis C virus,luciferase / reporter gene / replicon,1b,-,EC50,-,-,90.56 µM
O=C(NC1CC2(C1)CC(c1nc3cc(Cl)ccc3o1)C2)C1CN(Cc2ccccc2)S(=O)(=O)C1,Hepatitis A virus,luminescence,-,-,EC50,-,Primary human hepatocytes,4.44 µM
O=C1COc2ccc(CNC(=O)c3c4n(c(=O)n3-c3ccc(OC5CC5)cc3)CCN(C(=O)c3ccc(Br)c(Cl)c3)C4)cc2N1,Hepatitis B virus,PCR,-,-,EC50,-,HepG2.117,0.5–5 µM
C1=C[C@@H](c2ncc(-c3ccc(-c4ccc(-c5cnc([C@@H]6C=CCN6)[nH]5)cc4)cc3)[nH]2)NC1,Hepatitis C virus,luciferase,1b,-,EC50,-,ET,1.7 µM
COc1cc2c(cc1Cl)-c1c(cc(C(=O)O)c(=O)n1C1CC1)C(C)S2,Hepatitis B virus,antigen / visual reading / absorbance,-,-,EC50,-,Primary human hepatocytes,>0.5 µM
CC(C)Cc1cnn2c3c(c(=O)n(-c4ccc(-c5n[nH]c(=O)n5C)cc4)c12)C[C@@H](C)N(C(=O)c1ccc(Br)c(C(F)(F)F)c1)C3,Hepatitis B virus,luminescence,-,-,EC50,-,HepG2.117,≤0.05 µM
CN(C)c1ccc2c(c1)Cc1cc(NC(N)=S)ccc1-2,Hepatitis C virus,reporter gene / fluorescence,-,-,EC50,-,Ava5-EG(delta4AB)SEAP,0.001–1 µM
COc1ccc(-n2c(C(=O)NCc3ccccc3)c3n(c2=O)CCN(C(=O)c2ccc(Br)c(Cl)c2)C3)cc1,Hepatitis B virus,PCR,-,-,EC50,-,HepG2.117,0.1–0.5 µM
O=C(N[C@@H](C(=O)N1CCC[C@H]1c1ncc(-c2ccc(-c3ccc(-c4cnc([C@@H]5CCCN5C(=O)[C@H](NC(=O)C5CC5)c5ccccc5)s4)cc3)cc2)s1)c1ccccc1)C1CC1,Hepatitis C virus,luciferase / reporter gene,genotype 1b,P58T,fold resistance,-,Huh7.5,162
C[C@@H]1O[C@@H](O[C@@H]2Cc3c(O)cc(O)cc3O[C@@H]2c2ccc(O)c(O)c2)[C@H](O)[C@H](O)[C@H]1O,Hepatitis B virus,ELISA / antigen,-,-,inhibition,30 µM,HepG2.2.15,71.3%
O=C(O)c1cc2c(n(C3CC3)c1=O)-c1cc(Cl)c(OC3CCOCC3)cc1S(=O)(=O)C2,Hepatitis B virus,antigen / visual reading / absorbance,-,-,EC50,-,Primary human hepatocytes,0.1–0.5 µM
C[C@H]1Cc2c(n3ncc(CC4CC4)c3n(-c3ccc(-c4nc(=O)on4C)cc3)c2=O)CN1C(=O)c1ccc(Br)c(C(F)(F)F)c1,Hepatitis B virus,luminescence,-,-,EC50,-,HepG2.117,≤0.05 µM
COc1ccc(C2C3=C(CC(C)(C)CC3=O)Nc3c(O)cccc3N2C(=O)C(C)C)c2ccccc12,Hepatitis C virus,luciferase / reporter gene / replicon,1b,-,EC50,-,-,0.9 µM
C[C@H](Oc1ccc(CNC(=O)c2c3n(c(=O)n2-c2ccc(OC4CC4)cc2)CCN(C(=O)c2ccc(Br)c(Cl)c2)C3)c(F)c1)C(N)=O,Hepatitis B virus,PCR,-,-,EC50,-,HepG2.117,0.1–0.5 µM
CC(=O)N1c2cccc(O)c2NC2=C(C(=O)CC(C)(C)C2)C1c1ccc(C(F)(F)F)cc1,Hepatitis C virus,luciferase / reporter gene / replicon,1b,-,EC50,-,-,8.47 µM
Cc1nc(-c2ccc(-n3c(=O)c4c(n5ncc(CC(C)C)c35)CN(C(=O)c3ccc(Br)c(Cl)c3)[C@@H](C)C4)cc2)n[nH]1,Hepatitis B virus,luminescence,-,-,EC50,-,HepG2.117,0.05–0.5 µM
COCCCOc1cc2c(cc1F)-c1c(cc(C(=O)O)c(=O)n1C1CC1)C(C(C)(C)C)S2(=O)=O,Hepatitis B virus,antigen / visual reading / absorbance,-,-,EC50,-,Primary human hepatocytes,>0.5 µM
CNC(=O)CNC(=O)N1c2cccc(O)c2NC2=C(C(=O)CC(C)(C)C2)C1c1ccc(OCc2ccccc2)cc1Cl,Hepatitis C virus,luciferase / reporter gene / replicon,1b,-,EC50,-,-,>100 µM
CCS(=O)(=O)c1cccc(CNC(=O)c2c3n(c(=O)n2-c2ccc(OC(C)C)cc2)CCN(C(=O)c2ccc(Br)c(Cl)c2)C3)c1,Hepatitis B virus,PCR,-,-,EC50,-,HepG2.117,0.5–5 µM
NC(=S)Nc1cccc(OCCCCCOc2ccccc2C(=O)Oc2ccccc2)c1,Hepatitis C virus,reporter gene / fluorescence,-,-,EC50,-,Ava5-EG(delta4AB)SEAP,0.001–1 µM
CC1(C)CC(=O)C2=C(C1)Nc1c(O)cccc1NC2c1ccc(C(F)(F)F)cc1C(F)(F)F,Hepatitis C virus,luciferase / reporter gene / replicon,1b,-,EC50,-,-,41.26 µM
NC(=S)Nc1cccc(NCCCCCCCc2ccccc2)c1,Hepatitis C virus,reporter gene / fluorescence,-,-,EC50,-,Ava5-EG(delta4AB)SEAP,0.001–1 µM
CC(C)Cc1cnn2c3c(c(=O)n(-c4ccc(-c5nc(=O)on5C)cc4)c12)C[C@@H](C)N(C(=O)c1ccc(Br)c(C(F)(F)F)c1)C3,Hepatitis B virus,luminescence,-,-,EC50,-,HepG2.117,≤0.05 µM